# Test system: Sol g 2 protein
# Experiment: Binding assay: gel-filtration (P-2 gel) of crude venom, GC/MS of flow-through
# Set-up: species or system Solenopsis geminata
# Settings: crude venom after P-2 gel-filtration column
row,Compound,peak area ratios of ligands in flow-through (protein-bound fraction)
1,"CCCCCCCCCC [decane, Decane]",45%
2,"CCCCCCCCCCCC [dodecane, Dodecane]",15%
3,"CCCCCCCCCCCCC [tridecane, Tridecane]",4%
4,"CCCCCCCCCCC [undecane, Undecane]",36%

# — publication PMC10934024, “Protein–Ligand Binding and Structural Modelling Studies of Pheromone-Binding Protein-like Sol g 2.1 from Solenopsis geminata Fire Ant Venom” (Molecules, 2024)
